The subject of data set [1] is SiHa (HPV-16-positive). Kind of data set: Growth of HPV-positive SiHa cells, Coulter Counter cell count. In kind it is cell-based, human.
Data set [2] deals with primary human cervical keratinocytes (PHK). Kind of data set: Growth of control primary human cervical keratinocytes, Coulter Counter cell count. In kind it is cell-based.
Data set [3] has as its system EiL8 (HPV-16-positive). Kind of data set: Growth of HPV-positive EiL8 cells, Coulter Counter cell count. The note with it: for Ratio of IC50 at day 3 to IC50 at day 5: EiL8, Day 5; for Ratio of IC50 at day 3 to IC50 at day 7: EiL8, Day 7; for Ratio of IC50 at day 3 to IC50 at day 10: EiL8, Day 10. It counts as cell-based, human. The protocol:
The cells used in the first study included CK-1 (HPV-33-positive), EiL8 (HPV-16-positive), SiHa (HPV-16-positive) and HeLa (HPV-18-positive) and control primary human cervical keratinocytes (PHK). The cells were cultured in growth medium at 37° C., in 5% CO2. For these experiments, the cells were seeded in 96-well microtiter plates and after 24 hours of growth, serial dilutions of the test compounds were added. The cells were not fed after addition of the compounds. After three, five, seven and ten days, the cells were harvested by trypsinization and counted with a Coulter Counter. Duplicate wells were analyzed for each dilution and the results averaged. The number of cells recovered at each dilution was compared to the number of cells in untreated control wells and the concentration of test compound required to reduce cell growth by 50 percent (IC50) was determined.

Data set [4] has as its system HeLa (HPV-18-positive). Kind of data set: Growth of HPV-positive HeLa cells, Coulter Counter cell count. It counts as cell-based, human.
Data set [5] has as its system CK-1 (HPV-33-positive). It counts as cell-based. The conditions noted are these: for Ratio of IC50 at day 3 to IC50 at day 5: CK-1, Day 5; for Ratio of IC50 at day 3 to IC50 at day 7: CK-1, Day 7; for Ratio of IC50 at day 3 to IC50 at day 10: CK-1, Day 10.

These results are taken from patent publication US20020123480A1, “Methods and compositions utilizing 2'-5' oligoadenylates in the treatment of disorders of cell proliferation” (priority 2000, published 2002).

Take `Nc1ccn(C[C@@H](CO)OCP(=O)(O)O)c(=O)n1` [HPMPC, 3-hydroxy-2-phosphonylmethoxy-propyl cytosine, reference compound]: the “Ratio of IC50 at day 3 to IC50 at day 5” value amounted to 21 in data set [1]; 1.4 in data set [2] (Day 5); 4.9 in data set [3]; 6.6 in data set [4]; 29 in data set [5]. For the same molecule, the “Ratio of IC50 at day 3 to IC50 at day 7” value is recorded as 38 in data set [1]; 1.5 in data set [2] (Day 7); 9.3 in data set [3]; 9.5 in data set [4]; 64 in data set [5]. In addition, the “Ratio of IC50 at day 3 to IC50 at day 10” value in data set [1] is 45; in data set [2] (Day 10), 2.7; in data set [3], 11; in data set [4], 7.9; in data set [5], 27.

For “2′,3′-cyclophosphateadenylyl(2′,5′)adenylyl-(2′,5′)adenosine [Cmpd. I]”, the “Ratio of IC50 at day 3 to IC50 at day 5” value is recorded as 1.4 in data set [1], 0.8 in data set [3], 1.1 in data set [4] and 2.2 in data set [5]. The “Ratio of IC50 at day 3 to IC50 at day 7” value in data set [1] is 1.1; in data set [3] it was 0.5; in data set [4], 0.7; in data set [5], 1.0. In addition, the “Ratio of IC50 at day 3 to IC50 at day 10” value in data set [1] was found to be 0.8; in data set [3], 0.3; in data set [4], 0.4; in data set [5], 0.3.
